Molecular target: phospholipase A2 (Cdcum6) (Crotalus durissus cumanensis, UniProt P0CAS1)
Assay: Inhibition of PLA2 activity using 4-nitro-3-octanoyloxybenzoic acid (4N3OBA) as monodispersed substrate
Details: read-out: IC50 Value for Inhibition of PLA2 Activity; 4N3OBA substrate; enzyme co-incubated with compound 30 min at 37 °C

The chains behind the UniProt entries cited, without tags or fusion partners. Where a name states a change or a piece, a line headed by the entry shows the natural chain unless it says otherwise.
UniProt P0CAS1: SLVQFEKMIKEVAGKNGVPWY

| SMILES | IC50 |
| --- | --- |
| CCOC(=O)CSC(=O)c1ccc(Cl)cc1 [Compound I, Ethyl 2-((4-chlorobenzoyl)thio)acetate] | 193 µM |
| CCOC(=O)CSC(=O)c1cccc([N+](=O)[O-])c1 [II, Ethyl 2-((3-nitrobenzoyl)thio)acetate] | 305 µM |
| CCOC(=O)CSC(=O)c1ccc([N+](=O)[O-])cc1 [III, Ethyl 2-((4-nitrobenzoyl)thio)acetate] | 133 µM |

From publication PMC6630910 (Pharmaceuticals, 2019)
